Experimental data: PubChem BioAssay AID1259414 (Drosophila RNAi Screening Center, 2018)

Assay: 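Fly genes that alter Wolbachia amount inside host cells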 (primary screen)
Cells: Drosophila JW18 cells infected with Wolbachia
Knock-down reagent: long dsRNA against Drosophila genes, 0.25 µg dsRNA per well of a 384-well plate
Time to read-out: 5 days
Treatment: cells persistently infected with Wolbachia before knock-down; no added drug
Read-out: 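Automated imaging of bacterial rRNA staining divided by host cell count, reported as plate-normalised robust z-score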
Scale: Wolbachia per cell robust z: higher = more Wolbachia per host cell than the plate typical
Rule for the call: 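Active if absolute robust z reaches 1.5 in two or more of three replicates, leaving out multi- or no-target dsRNAs, genes unexpressed in JW18 and A1 wells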
In all, the deposit lists about 24,000 reagents; this is a random part of those with a known target gene and a result. In the full data, about 1,210 (5%) were called active. 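Inactive calls also include excluded dsRNAs with several or no targets, genes unexpressed in JW18, and well A1, regardless of score.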 Entries without a mark were called inactive. Reagents against one gene are numbered here. A plus sign joins genes that one reagent is predicted to hit.

| target gene | reagent | Wolbachia per cell robust z, rep 1 | Wolbachia per cell robust z, rep 2 | Wolbachia per cell robust z, rep 3 |
| --- | --- | --- | --- | --- |
| CG13384 | 1 | 0.0468 | 0.436 | 1.14 |
| slim | 1 | 0.708 | -1 | 1.15 |
| Sws1 + Rad1 | 1 | 0.508 | -4.32 | 0.262 |
| CG4324 | 1 | -5.16 | -1.06 | -1.47 |
| CG4324 | 2 | 1.58 | 0.893 | 1.06 |
| lncRNA:mimi | 1 | 0.236 | 0.671 | 0.47 |
| Rim | 1 | 0.496 | 0.441 | -0.00604 |
| Rim | 2 | -4.92 | -1.48 | -1.18 |
| Rim | 3 | 1.12 | 0.186 | 0.776 |
| Rim | 4 | -1.51 | -1.46 | -1.21 |
| TwdlJ | 1 | -4.57 | -0.118 | -0.555 |
| tsh | 1 | 0.924 | 0.649 | 1.04 |
| TotF | 1 | -0.346 | 0.0502 | -0.0316 |
| TotF | 2 | -0.537 | 0.109 | 0.713 |
| CG15635 | 1 | -2.52 | -3.03 | -1.15 |
| CG15635 | 2 | -1.29 | -1.49 | -3.32 |
| CG13473 | 1 | 0.732 | 0.126 | -8.33 |
| cnn | 1 | -0.389 | 1.02 | -1.09 |
| cnn | 2 | 0.67 (active) | -3.04 | -1.84 |
| cnn | 3 | 0.707 | 0.116 | 0.574 |
| nw | 1 | -3.2 | -0.634 | -2.86 |
| nw | 2 | 0.417 | 0.419 | -0.39 |
| nw | 3 | -1.74 | -0.315 | -2.66 |
| nw | 4 | 0.175 | -0.107 | -12.3 |
| nw | 5 | -0.64 | -0.319 | -1.29 |
| jigr1 | 1 | -5.63 (active) | -2.21 | -1.23 |
| jigr1 | 2 | -0.345 | -0.0215 | 1.25 |
| Mal-A3 | 1 | -2.44 | -0.326 | 0.424 |
| Mal-A3 | 2 | 0.628 | -2.12 | 0.0207 |
| grn | 1 | 0.0859 | -0.281 | 0.101 |
| grn | 2 | -0.266 | -0.418 | -1.4 |
| CG13606 | 1 | 0.148 | 0.805 | -0.386 |
| Pex7 | 1 | 0.936 | 1.3 | 0.951 |
| HIPP1 | 1 | 0.556 | -2.58 | 0.372 |
| HIPP1 | 2 | 0.0706 (active) | -2.88 | -1.6 |
| CG34375 | 1 | 0.561 | 0.963 | 0.394 |
| CG34375 | 2 | 0.257 | -0.588 | -0.378 |
| CG34375 | 3 | -1.17 | -0.978 | 0.175 |
| loj | 1 | -1.15 | 0.499 | 0.674 |
| Adar | 1 | -0.253 | 0.263 | 0.26 |
| CG33966 | 1 | 1.28 | 0.68 | 0.0869 |
| CG33966 | 2 | -0.752 | -0.644 | -0.399 |
| Xrp1 | 1 | 1.15 | 1.51 | -6.54 |
| Xrp1 | 2 | -1.01 | 0.491 | -0.353 |
| CG8668 | 1 | -0.834 | 0.994 | 0.451 |
| CG8668 | 2 | 0.761 | -0.175 | 1.25 |
| fra | 1 | -0.208 | -2.31 | 0.159 |
| CG17786 | 1 | -0.271 | 0.11 | -1.39 |
| CG17786 | 2 | -0.684 | -0.411 | 1.43 |
| CG7222 | 1 | 0.562 | 0.572 | -2.66 |

The list goes on, starting with the last 4 of the part before.
| target gene | reagent | Wolbachia per cell robust z, rep 1 | Wolbachia per cell robust z, rep 2 | Wolbachia per cell robust z, rep 3 |
| --- | --- | --- | --- | --- |
| fra | 1 | -0.208 | -2.31 | 0.159 |
| CG17786 | 1 | -0.271 | 0.11 | -1.39 |
| CG17786 | 2 | -0.684 | -0.411 | 1.43 |
| CG7222 | 1 | 0.562 | 0.572 | -2.66 |
| Nepl4 | 1 | 0.566 | 0.496 | -0.16 |
| CG4282 | 1 | -1.14 | -0.737 | -0.375 |
| S-Lap4 | 1 | -0.921 | -0.242 | -0.485 |
| S-Lap4 | 2 | -0.369 | -0.759 | -0.592 |
| att-ORFB + DPCoAC | 1 | 0.52 | -1.05 | -1.44 |
| Dso2 | 1 | 0.0772 | 1.18 | -1.03 |
| RIC-3 | 1 | 1.62 | 0.708 | 0.89 |
| RIC-3 | 2 | -0.526 | -0.855 | -0.82 |
| dec | 1 | -0.0694 | 0.713 | -0.459 |
| dec | 2 | -0.301 | -0.465 | -0.236 |
| dec | 3 | -0.881 | -5.61 | -0.0605 |
| CG15202 | 1 | 0.637 | 0.969 | -0.436 |
| CG3618 | 1 | 0.274 | -0.221 | 0.481 |
| Rh3 | 1 | -0.245 | 3.37 | 0.272 |
| CG6324 | 1 | 0.6 | 0.511 | -0.167 |
| CG12885 | 1 | -2.96 | -0.356 | 0.178 |
| CG12885 | 2 | 0.616 | 0.677 | 0.719 |
| Ack | 1 | -2.75 | 0.0829 | -0.653 |
| Ack | 2 | 0.523 | 0.517 | 0.723 |
| Tb | 1 | -1.09 | -1.63 | -1.72 |
| Tb | 2 | 0.175 | -0.325 | 0.62 |
| ph-d | 1 | -1.36 | 0.526 | 0.708 |
| ph-d | 2 | 0.835 | -0.0575 | -0.419 |
| Cyp4ac1 | 1 | -1.46 | -2 | 0.869 |
| Idgf3 | 1 | 0.562 | 0.541 | 0.36 |
| Idgf3 | 2 | 0.278 | -0.547 | 0.552 |
| CycH | 1 | 0.457 | 0.522 | 0.634 |
| CycH | 2 | 0.818 | 0.161 | -0.314 |
| CG12490 | 1 | -1.19 | 0.618 | -1.64 |
| CG4896 | 1 | -1.93 (active) | -2.23 | 1.34 |
| CG4896 | 2 | -0.114 | -0.908 | -0.198 |
| CG8679 | 1 | 0.238 | -0.258 | -0.489 |
| Fer2LCH | 1 | -0.122 | -3.56 | 0.457 |
| Fer2LCH | 2 | 0.676 | -1.3 | -0.221 |
| Kdm5 | 1 | 1.18 | 1.29 | 0.0778 |
| Kdm5 | 2 | 1.35 | 1.1 | 0.966 |
| al | 1 | -2.08 | 1.04 | 0.418 |
